Measurements published in patent US20060246084.

Molecular target: IFN-γ receptor on human cells (no IFN-γ added), human, P15260 18-489
Experiment: […] paragraph 293 uses this token for binding not detectable

In the case of LcrV68-326, N-terminally truncated LcrV, the result is reported as “no binding (tested: ≧10^-3 (Molar Kd))”.
